Each structure is given as a SMILES string. This is a selection; strong and weak results do not stand in their true shares. Activity calls are given as the source filed them. Rule as the data show it: active = max response mostly above about 13% (no sharp cut-off); inactive = mostly below about 14%.

The test in a line: Cycloheximide Counterscreen for Small Molecule Inhibitors of Shiga Toxin. Also: read at 38.3 µM for the half of the compounds with a filed dose; 0% is about no effect. The note with it: cell reporter, cycloheximide protein synthesis inhibition counterscreen; active compounds read high. In general terms: Counterscreens check selectivity or assay interference.
Regarding `Cc1ccc(OP(=O)(Nc2ccccn2)Oc2ccc(C)cc2)cc1`, the max response was inactive: -1.27%.

On to `COC(=O)c1cc2c(s1)N=C(c1ccccc1)N(C)P2(=O)N1CCOCC1` (stereo unspecified), for which the max response is inactive: -2.55%.

In the case of `Cc1ccc(NP(=O)(Oc2cccc(C)c2)Oc2cccc(C)c2)nc1`, the max response was inactive: -0.0421%.

As for `CCOC(=O)NC(Sc1ccccc1)C(Cl)(Cl)Cl` (stereo unspecified), the max response was inactive: 15%.

On to `c1ccc(-c2nn[nH]n2)c(-c2nn[nH]n2)c1`, for which the max response was inactive: -2.43%.

Take `O=C(NC1CCS(=O)(=O)C1)NP(=S)(Oc1ccccc1)Oc1ccccc1` (stereo unspecified): the max response was inactive: 1.16%.

As for `CC(=O)Nc1ccc(Oc2c([N+](=O)[O-])cc([N+](=O)[O-])cc2[N+](=O)[O-])cc1`, the max response is inactive: 0.775%.

With `CC(=O)Nc1ccc([As](=O)(O)O)c(O)c1`, the max response is inactive: 11%.

For the molecule `C[C@H]1OP(=O)(Oc2ccccc2)C[C@@H]2O[C@@H]21` (stereo partly specified), the max response was inactive: -10.4%.

On to `C[C@@H]1C=CCP(=O)(Oc2ccccc2)O1` (stereo partly specified), for which the max response is inactive: -7.91%.

Consider `CC(=O)c1ccc(N2CC2c2ccncc2)cc1` (stereo unspecified), for which the max response was inactive: -2.95%.

As for `CC(C)(C)C(=O)NC(Sc1ccccc1)C(Cl)(Cl)Cl` (stereo unspecified), the max response was inactive: 2.82%.

Take `CCOc1ccc(C2=NCC(CBr)S2)cc1` (stereo unspecified): the max response is inactive: 9.79%.

For the molecule `O=P1(Nc2nc3ccc(Cl)cc3s2)COc2ccccc2O1` (stereo unspecified), the max response was inactive: 16.6%.

Turning to `CCC(C)(OOC(C)(C)C)OOC(C)(C)C`, the max response was inactive: -3.69%.

Take `CC(C)C(=O)NC(Sc1ccccc1)C(Cl)(Cl)Cl` (stereo unspecified): the max response was inactive: -4.68%.

On to `O=P(Nc1nccs1)(c1ccccc1)c1ccccc1`, for which the max response was inactive: 0.83%.

In the case of `O=C(OC1CN2CCC1CC2)c1cccc(Cl)c1` (stereo unspecified), the max response was inactive: -3.31%.

In the case of `Nc1ccc([As](=O)(O)c2ccc([N+](=O)[O-])cc2)cc1`, the max response is inactive: -2.97%.

Regarding `O=[As](O)(c1ccccc1)c1ccc(O)cc1`, the max response was inactive: 1.16%.

As for `O=[N+]([O-])c1ccc(O)c(/C=N/Nc2ccc([N+](=O)[O-])cc2[N+](=O)[O-])c1`, the max response is inactive: 1.07%.

For the molecule `CC(=O)NC(SC(=S)N(C)C)C(Cl)(Cl)Cl` (stereo unspecified), the max response was inactive: 11.5%.

In the case of `C[C@H]1OP(=O)(Oc2ccccc2)[C@H](O)[C@H](O)[C@H]1N=[N+]=[N-]` (stereo partly specified), the max response was inactive: -4.4%.

As to `O=P(Nc1nc2ccccc2s1)(c1ccccc1)c1ccccc1`, the max response is active: 14.5%.

For `O=P(Nc1ccccn1)(c1ccc(Br)cc1)c1ccc(Br)cc1`, the max response was inactive: 0.149%.

Turning to `CN(C)C1(CNC(=O)c2ccc(Cl)c(S(N)(=O)=O)c2)CCCCC1`, the max response is inactive: -2.33%.

Source of the values: PubChem BioAssay AID2314 (National Center for Advancing Translational Sciences (NCATS), 2010).
